Molecular target: GST-SMURF2-WW3 (Homo sapiens, UniProt Q9HAU4)
Type: binding
Conditions: pH 7.4

Protein sequences, listed by entry. Tags and fused reporters are not part of them. Residues count along the entry.
UniProt Q9HAU4, 297-330: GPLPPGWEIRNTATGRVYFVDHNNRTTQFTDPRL

Compound: CC[C@H](C)[C@H](NC(=O)[C@H](C)NC(=O)[C@H](CCC(=O)O)NC(=O)[C@H](CCSC)NC(=O)[C@H](Cc1ccc(O)cc1)NC(=O)[C@H](CCC(=O)O)NC(=O)[C@@H]1CCCN1C(=O)[C@@H]1CCCN1C(=O)[C@H](C)NC(=O)[C@@H](NC(=O)[C@@H]1CCCN1C(=O)[C@H](CC(C)C)NC(=O)[C@@H](NC(=O)[C@@H](NC(=O)[C@H](CCCNC(=N)N)NC(=O)[C@H](CCCNC(=N)N)NC(=O)[C@@H](N)CCSC)C(C)C)[C@@H](C)CC)[C@@H](C)O)C(=O)N[C@@H](CCCCNC(=O)CCCC[C@@H]1SC[C@@H]2NC(=O)N[C@@H]21)C(=O)O [eVP40-WT peptide]
- binding to SMURF2 WW3 (in words): bound robustly to WW3 of SMURF2 in a concentration-dependent manner

Reference: paper PMC7918931 (Viruses, 2021)
